{"source": "patent US9540389B2", "about": "“Antimicrobial potentiators” (priority 2013, dated 2017)", "key": {"[1]": {"test_system": "Escherichia coli 285 (AB1157, CIPR, overexpresses efflux)", "details": "MIC (WT)/MIC (mutant) in the absence of EPI"}, "[2]": {"test_system": "Escherichia coli 287 (AB1157, CIPR, overexpresses efflux)", "details": "MIC (WT)/MIC (mutant) in the absence of EPI"}}}
{"compound": "CO/N=C(\\C(=O)N[C@@H]1C(=O)N2C(C(=O)O)=C(COC(C)=O)CS[C@H]12)c1csc(N)n1", "note": "[CEF, cefotaxime]", "values": [{"measurement": "MIC ratios mutant", "setting": "[1]", "value": 0.25}, {"measurement": "MIC ratios mutant", "setting": "[2]", "value": 0.25}]}
